Pooled drug test results. Numbers come from NIAID ChemDB, via PubChem.

Shared fields: host cell toxicity; cell line: VERO; read-out: CC50

Lines come from different laboratories, so protocols vary. Blank or dashed fields: not listed here. CCn is the concentration with n% toxicity to the cells.

smiles	read by	result
CC(=O)C(NC(=O)C(C)C(O)C(C)NC(=O)C(NC(=O)c1nc(C(CC(N)=O)NCC(N)C(N)=O)nc(N)c1C)C(OC1OC(CO)C(O)C(O)C1(C)OC1OC(CO)C(O)C(O)(C(N)=O)C1O)c1cnc[nH]1)C(=O)NCCC1=NC(c2nc(C(N)=O)cs2)CS1	-	0.8 µg/mL
Cc1cn([C@@H]2O[C@H](CO)[C@@H](O)[C@@H]2F)c(=O)[nH]c1=O	-	7.9 µM
Cc1cn([C@@H]2O[C@@H](CO)[C@H](O)C2(F)F)c(=O)[nH]c1=O	-	>100 µM
CC1CC(c2ccc3ccccc3c2)NCCNC(c2ccc3ccccc3c2)CC(C)NCCN1	-	1.69 µg/mL
COC(=O)[C@H](C)NP(=O)(OCCOCn1cnc2c(=O)[nH]c(N)nc21)Oc1ccccc1	-	>500 µM
Nc1nc(=O)n([C@H]2O[C@@H](CO)[C@H](O)C2(F)F)cc1F	-	>100 µM
COc1cccc(Nc2nc(NNc3nc(-c4ccccc4)c(C#N)c(=O)n3C)nc(Nc3cccc(OC)c3)n2)c1	-	32 µg/mL
Cc1cn([C@@H]2O[C@H](CO)[C@@H](CO)[C@@H]2F)c(=O)[nH]c1=O	-	≥100 µM
COc1ccc2c(c1)[n+]([O-])c(C(N)=O)c(N)[n+]2[O-]	-	13.29 µg/mL
Cc1c(CN2CCSCC2)cc(-c2ccc(F)cc2)n1-c1ccccc1	-	4 µg/mL
CC1(C)[C@@H](CO)CC[C@@]1(C)Cn1cnc2c(=O)[nH]cnc21	-	>400 µg/mL
CC1=NN(C(=O)c2ccncc2)C(=O)C1N=Nc1ccc([N+](=O)[O-])cc1Cl	-	10.71 µg/mL
CN1c2c(-c3ccccc3)nn(CC(=O)N/N=C/c3c(Cl)cccc3Cl)c2-c2ccccc2S1(=O)=O	-	>100 µM
Cn1c(NNc2nc(Nc3cccc(Cl)c3)nc(Nc3cccc(Cl)c3)n2)nc(-c2ccccc2)c(C#N)c1=O	-	27 µg/mL
COC(=O)[C@H](C)NP(=O)(OC[C@H]1C/C1=C/n1cnc2c(N)nc(N)nc21)Oc1ccccc1	-	35 µM
Nc1nc2c(ncn2[C@H]2O[C@@H](CO)[C@H](O)C2(F)F)c(=O)[nH]1	-	>100 µM
O=[N+]([O-])c1ccc(NC(=S)Nc2ncc(C3CCC3)o2)cc1	MTT	196 µM
CCCCS(=O)(=O)Nc1ccc2[nH]c(C(=O)NC(C)C)c(C)c2c1	resazurin	140 µM
Nc1nc(=O)n([C@@H]2O[C@H](CO)[C@@H](O)[C@@H]2F)cc1I	-	21.7 µM
S=C(Nc1cc(Cl)ccn1)Nc1ncc(C2CCC2)o1	MTT	>202.4 µM
CC1(C)[C@@H](CO)CC[C@@]1(C)Cn1nnc2c(=O)[nH]cnc21	-	>400 µg/mL
CCCCS(=O)(=O)Nc1ccc2[nH]c(C(=O)NC(C)CC)c(C)c2c1	resazurin	140 µM
Cn1c(NNc2nc(Nc3cc(Cl)cc(Cl)c3)nc(Nc3cc(Cl)cc(Cl)c3)n2)nc(-c2ccccc2)c(C#N)c1=O	-	13 µg/mL
COC(=O)[C@H](C)NP(=O)(OCC1C/C1=C/n1cnc2c(=O)[nH]c(N)nc21)Oc1ccccc1	-	>100 µM
CCOc1cc(/C=N/NC(=O)Cn2nc(-c3ccccc3)c3c2-c2ccccc2S(=O)(=O)N3C)ccc1O	-	9.2 µM
CCCCNC(=O)c1[nH]c2ccc(NS(=O)(=O)CCCC)cc2c1C	resazurin	>140 µM
C/C=[N+](\NC(=O)CCCC(=O)N/[N+](=C\C)C1(O)Cc2c(O)c3c(c(O)c2C(OC2CC(N)C(O)C(C)O2)C1)C(=O)c1c(OC)cccc1C3=O)C1(O)Cc2c(O)c3c(c(O)c2C(OC2CC(N)C(O)C(C)O2)C1)C(=O)c1c(OC)cccc1C3=O	-	0.79 µg/mL
CCCCS(=O)(=O)Nc1ccc2[nH]c(C(=O)NCCCc3ccccc3)c(C)c2c1	resazurin	>120 µM
CCN(CC)CCN(C)c1ccc(CO)c2sc3cc(Cl)ccc3c(=O)c12	-	3.52 µg/mL
CC1(C)[C@@H](CO)CC[C@@]1(C)Cn1cnc2c(Cl)ncnc21	-	>400 µg/mL
O=C(Nn1c(=O)c(=O)oc2ccccc21)C(F)(F)F	-	16.9 µg/mL
CN1c2c(-c3ccccc3)nn(CC(=O)N/N=C/c3ccccc3F)c2-c2ccccc2S1(=O)=O	-	>100 µM
COc1cccc2c1[n+]([O-])c1cccc(O)c1[n+]2[O-]	-	20 µg/mL
O=C(Nc1cccc(N2CCSCC2)c1)c1ccc(-c2ccccc2)cc1	-	8 µg/mL
CCCCS(=O)(=O)Nc1ccc2[nH]c(C(=O)N(CC)CC)c(C)c2c1	resazurin	>140 µM
CC(C)c1cc(=O)c2cc3[nH]c4ccccc4c3cc2[nH]1	-	7.4 µg/mL
CC(=O)CCCCCCCCCCCc1ccc2c(c1)OCO2	-	>102 µg/mL
CCCCS(=O)(=O)Nc1ccc2[nH]c(CNC(=O)c3ccccc3)c(C)c2c1	resazurin	130 µM
Nc1ncnc2c1ncn2[C@@H]1C[C@H](CO)[C@@H](O)[C@@H]1O	-	60 µM
CCCCS(=O)(=O)Nc1ccc2[nH]c(Br)c(C)c2c1	resazurin	72 µM
O=C(Nc1ccccc1N1CCSCC1)c1ccc(-c2ccccc2)cc1	-	64 µg/mL
CCCCS(=O)(=O)Nc1ccc2[nH]c(C(=O)NCCc3ccccc3)c(C)c2c1	resazurin	>120 µM
COc1cc2c3c(cc4ccccc4c3c1OC)N(C)C(=O)C2=O	-	>102 µg/mL
c1ccc(-c2ccc(CNc3ccccc3N3CCOCC3)cc2)cc1	-	16 µg/mL
Cc1ccc(NC2=CC(=O)C(=O)c3ccccc32)cc1	-	2.28 µg/mL
CN1CCN(c2ccc(NCc3ccc(Cl)cc3)cc2)CC1	-	4 µg/mL
CC(=O)CCCCCCCCCCCCCCc1ccc2c(c1)OCO2	-	>102 µg/mL
Nc1nc(=O)n(C2O[C@@H](CO)[C@H](O)C2(F)F)cc1Br	-	>100 µM
CN1c2c(-c3ccccc3)nn(CC(=O)N/N=C/c3cccc([N+](=O)[O-])c3)c2-c2ccccc2S1(=O)=O	-	>100 µM
OCCNCCN1CCN(CCCN2c3ccccc3Sc3ccc(C(F)(F)F)cc32)CC1	-	<2.06 µg/mL
Cc1c(CN2CCSCC2)cc(-c2ccccc2)n1-c1ccc(F)cc1	-	8 µg/mL
Cc1c2cnccc2c(C)c2c1c1ccccc1n2CCOC(=O)c1ccccc1	-	4.44 µg/mL
Clc1ccc(CNc2ccc(N3CCSCC3)cc2)cc1	-	4 µg/mL
CO[C@H]1/C=C/O[C@@]2(C)Oc3c(C)c(O)c4c(O)c(c(/C=N/N5CCN(Cc6ccccc6)CC5)c(O)c4c3C2=O)NC(=O)/C(C)=C\C=C\[C@H](C)[C@H](O)[C@@H](C)[C@@H](O)[C@@H](C)[C@H](OC(C)=O)[C@@H]1C	-	14.16 µg/mL
Cc1ccc(C2NC(=O)C3NC(=O)C(c4cc(O)cc(O)c4)NC(=O)C(NC(=O)C(N)Cc4ccc(O)cc4)Cc4c[nH]c5cc(ccc45)-c4cc3cc(c4O)Oc3ccc(cc3)CC(C(=O)NC(C(=O)O)c3ccc(O)c(O)c3)NC2=O)cc1Cl	-	>200 µg/mL
CN1c2ccc(C3N(C(=O)C(F)(F)F)C=CN3C(=O)C(F)(F)F)cc2Sc2cc(C3N(C(=O)C(F)(F)F)C=CN3C(=O)C(F)(F)F)ccc21	-	>10 µg/mL
O=C(Nc1ccccc1N1CCSCC1)c1ccc(Cl)cc1	-	64 µg/mL
COc1c(C)c2c3c4c1C(=O)C(=CC4=O)NC(=O)/C(C)=C\C=C\[C@H](C)[C@@H]1OC(C)(C)O[C@@H]([C@@H](C)[C@H](OC(C)=O)[C@H](C)[C@@H](OC)/C=C/O[C@@](C)(O2)C3=O)[C@@H]1C	-	4.32 µg/mL
CCCCS(=O)(=O)Nc1ccc2[nH]c(C(=O)NCC(C)C)c(C)c2c1	resazurin	>140 µM
CCOc1ccc2c(c1)n([O-])c1cc(Br)ccc1[n+]2=O	-	20.56 µg/mL
O=c1ccn([C@@H]2O[C@H](CO)[C@@H](O)[C@@H]2F)c(=O)[nH]1	-	2.9 µM
CN(C)C(=O)Sc1ccc(-c2c(-c3ccccc3)oc3ccc4ccccc4c23)cc1	-	>500 µg/mL
O=[N+]([O-])c1ccnc(NC(=S)Nc2ncc(C3CCC3)o2)c1	MTT	196 µM
O=C(CCl)NNC1=Nc2ccc(Cl)cc2SC1	-	0.89 µg/mL
COC(=O)[C@H](C)NP(=O)(OCC1C/C1=C/n1cnc2c(N)ncnc21)Oc1ccccc1	-	1 µM
O=C(C/C=C/c1ccccc1)Nc1cccc(N2CCSCC2)c1	-	32 µg/mL
CCN(CC)C(=S)SSC(=S)N(CC)CC	-	1.34 µg/mL

The first 9 rows once more:

smiles | read by | result
CC(=O)C(NC(=O)C(C)C(O)C(C)NC(=O)C(NC(=O)c1nc(C(CC(N)=O)NCC(N)C(N)=O)nc(N)c1C)C(OC1OC(CO)C(O)C(O)C1(C)OC1OC(CO)C(O)C(O)(C(N)=O)C1O)c1cnc[nH]1)C(=O)NCCC1=NC(c2nc(C(N)=O)cs2)CS1 | - | 0.8 µg/mL
Cc1cn([C@@H]2O[C@H](CO)[C@@H](O)[C@@H]2F)c(=O)[nH]c1=O | - | 7.9 µM
Cc1cn([C@@H]2O[C@@H](CO)[C@H](O)C2(F)F)c(=O)[nH]c1=O | - | >100 µM
CC1CC(c2ccc3ccccc3c2)NCCNC(c2ccc3ccccc3c2)CC(C)NCCN1 | - | 1.69 µg/mL
COC(=O)[C@H](C)NP(=O)(OCCOCn1cnc2c(=O)[nH]c(N)nc21)Oc1ccccc1 | - | >500 µM
Nc1nc(=O)n([C@H]2O[C@@H](CO)[C@H](O)C2(F)F)cc1F | - | >100 µM
COc1cccc(Nc2nc(NNc3nc(-c4ccccc4)c(C#N)c(=O)n3C)nc(Nc3cccc(OC)c3)n2)c1 | - | 32 µg/mL
Cc1cn([C@@H]2O[C@H](CO)[C@@H](CO)[C@@H]2F)c(=O)[nH]c1=O | - | ≥100 µM
COc1ccc2c(c1)[n+]([O-])c(C(N)=O)c(N)[n+]2[O-] | - | 13.29 µg/mL